How the values were obtained:
[1] = Selectivity ratio of IC50 for mouse alpha1beta1deltaepsilon nACh receptor to IC50 for rat alpha9alpha10 nACh receptor
[2] = target: Nicotinic acetylcholine receptor alpha1/beta1/epsilon/delta (Mus musculus) (UniProt P04756+P09690+P02716+P20782); test: Antagonist activity at mouse alpha1beta1deltaepsilon nACh receptor expressed in Xenopus oocyte assessed as inhibition of acetylcholine-induced response at -70 mV holding potential by measuring ratio of IC50 by voltage-clamp based electrophysiological assay relative to GeXIVA; details: filed as antagonist

Amino acid sequences for entries named in this document (tags omitted). Residues count along the entry.
UniProt P04756, 21-457 limits assumed: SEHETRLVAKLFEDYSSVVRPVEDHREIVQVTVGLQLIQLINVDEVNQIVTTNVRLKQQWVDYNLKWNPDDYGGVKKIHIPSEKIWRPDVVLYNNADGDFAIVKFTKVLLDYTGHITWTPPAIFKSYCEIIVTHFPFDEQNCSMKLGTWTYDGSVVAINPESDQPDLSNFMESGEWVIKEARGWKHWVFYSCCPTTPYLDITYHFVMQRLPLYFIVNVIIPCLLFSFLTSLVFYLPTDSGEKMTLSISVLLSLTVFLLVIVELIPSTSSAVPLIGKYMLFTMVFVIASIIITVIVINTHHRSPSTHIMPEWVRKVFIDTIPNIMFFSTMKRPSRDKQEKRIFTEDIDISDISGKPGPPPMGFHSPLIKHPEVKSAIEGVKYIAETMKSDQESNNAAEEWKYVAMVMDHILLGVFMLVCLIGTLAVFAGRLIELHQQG
UniProt P09690, 24-501 partner limits assumed: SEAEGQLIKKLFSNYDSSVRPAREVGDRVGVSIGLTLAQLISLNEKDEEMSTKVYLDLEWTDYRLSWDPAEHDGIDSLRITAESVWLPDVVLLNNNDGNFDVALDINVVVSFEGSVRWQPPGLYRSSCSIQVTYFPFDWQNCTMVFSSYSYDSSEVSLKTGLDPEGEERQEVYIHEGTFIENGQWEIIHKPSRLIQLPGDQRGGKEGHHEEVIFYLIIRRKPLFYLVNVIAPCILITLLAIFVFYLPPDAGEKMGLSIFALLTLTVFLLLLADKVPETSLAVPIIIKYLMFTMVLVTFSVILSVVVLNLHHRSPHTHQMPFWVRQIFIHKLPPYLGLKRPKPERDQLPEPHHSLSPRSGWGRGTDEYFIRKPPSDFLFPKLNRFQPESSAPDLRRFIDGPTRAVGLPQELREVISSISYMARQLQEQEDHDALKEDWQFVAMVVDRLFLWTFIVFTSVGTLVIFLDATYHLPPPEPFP
UniProt P02716, 25-520 partner limits assumed: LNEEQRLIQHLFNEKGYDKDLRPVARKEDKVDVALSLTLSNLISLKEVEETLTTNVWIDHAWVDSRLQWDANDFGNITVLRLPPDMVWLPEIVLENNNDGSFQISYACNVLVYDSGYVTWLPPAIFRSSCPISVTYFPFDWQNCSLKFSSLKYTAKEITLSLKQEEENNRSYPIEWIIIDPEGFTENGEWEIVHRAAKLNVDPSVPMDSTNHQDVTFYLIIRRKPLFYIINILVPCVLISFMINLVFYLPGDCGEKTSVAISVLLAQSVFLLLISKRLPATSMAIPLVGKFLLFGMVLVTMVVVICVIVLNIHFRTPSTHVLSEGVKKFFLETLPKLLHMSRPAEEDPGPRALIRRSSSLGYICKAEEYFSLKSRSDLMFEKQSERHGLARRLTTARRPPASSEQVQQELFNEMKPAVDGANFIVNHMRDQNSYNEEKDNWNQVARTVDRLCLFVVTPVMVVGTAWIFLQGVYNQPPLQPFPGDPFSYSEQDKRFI
UniProt P20782, 21-493 partner limits assumed: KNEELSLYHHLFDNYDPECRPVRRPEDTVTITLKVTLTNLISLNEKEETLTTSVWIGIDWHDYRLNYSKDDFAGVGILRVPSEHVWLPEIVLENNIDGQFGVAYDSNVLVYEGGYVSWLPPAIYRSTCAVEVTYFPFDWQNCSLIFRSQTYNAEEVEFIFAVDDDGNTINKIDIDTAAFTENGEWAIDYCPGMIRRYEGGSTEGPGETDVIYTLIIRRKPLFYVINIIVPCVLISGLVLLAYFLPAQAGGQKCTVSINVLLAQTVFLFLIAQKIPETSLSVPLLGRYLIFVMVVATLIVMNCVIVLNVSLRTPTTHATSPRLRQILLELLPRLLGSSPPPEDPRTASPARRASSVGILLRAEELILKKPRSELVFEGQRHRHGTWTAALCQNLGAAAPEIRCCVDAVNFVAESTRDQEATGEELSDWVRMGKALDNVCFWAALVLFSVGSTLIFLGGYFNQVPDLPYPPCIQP

SMILES	Ratio IC50 [1]	Ratio IC50 [2]
CC[C@H](C)[C@@H]1NC(=O)[C@H](CCCNC(=N)N)NC(=O)[C@H](CCCNC(=N)N)NC(=O)[C@@H]2CSSC[C@H](NC(=O)[C@H](Cc3ccc(O)cc3)NC(=O)[C@H](CCCNC(=N)N)NC(=O)CNC(=O)[C@H](CO)NC(=O)[C@H](CO)NC(=O)[C@H](C)NC(=O)[C@@H](NC(=O)[C@@H](N)[C@@H](C)O)CSSC[C@@H](C(=O)N[C@H](C(=O)O)C(C)C)NC(=O)[C@H](C)NC(=O)[C@H](CC(=O)O)NC(=O)[C@H]([C@@H](C)O)NC1=O)C(=O)N[C@@H](CCCNC(=N)N)C(=O)N[C@@H](CO)C(=O)N1CCC[C@H]1C(=O)N[C@@H](Cc1ccc(O)cc1)C(=O)N[C@@H](CC(=O)O)C(=O)N[C@@H](CCCNC(=N)N)C(=O)N[C@@H](CCCNC(=N)N)C(=O)N[C@@H](CCCNC(=N)N)C(=O)N[C@@H](CCCNC(=N)N)C(=O)N[C@@H](Cc1ccc(O)cc1)C(=O)N2	58.9	2.6
CC[C@H](C)[C@@H]1NC(=O)[C@H](CCCNC(=N)N)NC(=O)[C@H](CCCNC(=N)N)NC(=O)[C@@H](NC(=O)[C@H](Cc2ccc(O)cc2)NC(=O)[C@H](CCCNC(=N)N)NC(=O)[C@H](CCCNC(=N)N)NC(=O)[C@H](CCCNC(=N)N)NC(=O)[C@H](CCCNC(=N)N)NC(=O)[C@H](CC(=O)O)NC(=O)[C@H](Cc2ccc(O)cc2)NC(=O)[C@@H]2CCCN2C(=O)[C@H](CO)NC(=O)[C@H](CCCNC(=N)N)NC(=O)[C@@H]2CSSC[C@H](NC(=O)[C@H](C)N)C(=O)N[C@@H](CCCNC(=N)N)C(=O)N[C@@H](CO)C(=O)N[C@@H](CO)C(=O)NCC(=O)N[C@@H](CCCNC(=N)N)C(=O)N[C@@H](Cc3ccc(O)cc3)C(=O)N2)CSSC[C@@H](C(=O)N[C@H](C(=O)O)C(C)C)NC(=O)[C@H](C)NC(=O)[C@H](CC(=O)O)NC(=O)[C@H]([C@@H](C)O)NC1=O	45.7	0.7
CC[C@H](C)[C@@H]1NC(=O)[C@H](CCCNC(=N)N)NC(=O)[C@H](CCCNC(=N)N)NC(=O)[C@@H]2CSSC[C@H](NC(=O)[C@H](Cc3ccc(O)cc3)NC(=O)[C@H](CCCNC(=N)N)NC(=O)CNC(=O)[C@H](CO)NC(=O)[C@H](CO)NC(=O)[C@H](CCCNC(=N)N)NC(=O)[C@@H](NC(=O)[C@H](C)N)CSSC[C@@H](C(=O)N[C@H](C(=O)O)C(C)C)NC(=O)[C@H](C)NC(=O)[C@H](CC(=O)O)NC(=O)[C@H]([C@@H](C)O)NC1=O)C(=O)N[C@@H](CCCNC(=N)N)C(=O)N[C@@H](CO)C(=O)N1CCC[C@H]1C(=O)N[C@@H](Cc1ccc(O)cc1)C(=O)N[C@@H](CC(=O)O)C(=O)N[C@@H](CCCNC(=N)N)C(=O)N[C@@H](CCCNC(=N)N)C(=O)N[C@@H](CCCNC(=N)N)C(=O)N[C@@H](CCCNC(=N)N)C(=O)N[C@@H](Cc1ccc(O)cc1)C(=O)N2	95	1.6
CC[C@H](C)[C@H]1NC(=O)[C@H](CCCNC(=N)N)NC(=O)[C@H](CCCNC(=N)N)NC(=O)[C@@H](NC(=O)[C@H](Cc2ccc(O)cc2)NC(=O)[C@H](CCCNC(=N)N)NC(=O)[C@H](CCCNC(=N)N)NC(=O)[C@H](CCCNC(=N)N)NC(=O)[C@H](CCCNC(=N)N)NC(=O)[C@H](CC(=O)O)NC(=O)[C@H](Cc2ccc(O)cc2)NC(=O)[C@@H]2CCCN2C(=O)[C@H](CO)NC(=O)[C@H](CCCNC(=N)N)NC(=O)[C@@H]2CSSC[C@H](NC(=O)[C@@H](N)[C@@H](C)O)C(=O)N[C@@H](C)C(=O)N[C@@H](CO)C(=O)N[C@@H](CO)C(=O)NCC(=O)N[C@@H](CCCNC(=N)N)C(=O)N[C@@H](Cc3ccc(O)cc3)C(=O)N2)CSSC[C@@H](C(=O)N[C@H](C(=O)O)C(C)C)NC(=O)[C@H](C)NC(=O)[C@H](CC(=O)O)NC(=O)[C@H]([C@@H](C)O)NC1=O	26.2	3.7
CC[C@H](C)[C@@H]1NC(=O)[C@H](CCCNC(=N)N)NC(=O)[C@H](CCCNC(=N)N)NC(=O)[C@@H]2CSSC[C@H](NC(=O)[C@H](Cc3ccc(O)cc3)NC(=O)[C@H](CCCNC(=N)N)NC(=O)CNC(=O)[C@H](CO)NC(=O)[C@H](CO)NC(=O)[C@H](CCCNC(=N)N)NC(=O)[C@@H](NC(=O)[C@@H](N)[C@@H](C)O)CSSC[C@@H](C(=O)N[C@H](C(=O)O)C(C)C)NC(=O)[C@H](C)NC(=O)[C@H](CC(=O)O)NC(=O)[C@H]([C@@H](C)O)NC1=O)C(=O)N[C@@H](C)C(=O)N[C@@H](CO)C(=O)N1CCC[C@H]1C(=O)N[C@@H](Cc1ccc(O)cc1)C(=O)N[C@@H](CC(=O)O)C(=O)N[C@@H](CCCNC(=N)N)C(=O)N[C@@H](CCCNC(=N)N)C(=O)N[C@@H](CCCNC(=N)N)C(=O)N[C@@H](CCCNC(=N)N)C(=O)N[C@@H](Cc1ccc(O)cc1)C(=O)N2	13.4	0.6
CC[C@H](C)[C@@H]1NC(=O)[C@H](CCCNC(=N)N)NC(=O)[C@H](CCCNC(=N)N)NC(=O)[C@@H](NC(=O)[C@H](Cc2ccc(O)cc2)NC(=O)[C@H](C)NC(=O)[C@H](CCCNC(=N)N)NC(=O)[C@H](CCCNC(=N)N)NC(=O)[C@H](CCCNC(=N)N)NC(=O)[C@H](CC(=O)O)NC(=O)[C@H](Cc2ccc(O)cc2)NC(=O)[C@@H]2CCCN2C(=O)[C@H](CO)NC(=O)[C@H](CCCNC(=N)N)NC(=O)[C@@H]2CSSC[C@H](NC(=O)[C@@H](N)[C@@H](C)O)C(=O)N[C@@H](CCCNC(=N)N)C(=O)N[C@@H](CO)C(=O)N[C@@H](CO)C(=O)NCC(=O)N[C@@H](CCCNC(=N)N)C(=O)N[C@@H](Cc3ccc(O)cc3)C(=O)N2)CSSC[C@@H](C(=O)N[C@H](C(=O)O)C(C)C)NC(=O)[C@H](C)NC(=O)[C@H](CC(=O)O)NC(=O)[C@H]([C@@H](C)O)NC1=O	126	13.1
CC[C@H](C)[C@@H]1NC(=O)[C@H](CCCNC(=N)N)NC(=O)[C@H](CCCNC(=N)N)NC(=O)[C@@H](NC(=O)[C@H](Cc2ccc(O)cc2)NC(=O)[C@H](CCCNC(=N)N)NC(=O)[C@H](CCCNC(=N)N)NC(=O)[C@H](CCCNC(=N)N)NC(=O)[C@H](CCCNC(=N)N)NC(=O)[C@H](CC(=O)O)NC(=O)[C@H](Cc2ccc(O)cc2)NC(=O)[C@@H]2CCCN2C(=O)[C@@H](CO)NC(=O)[C@H](C)NC(=O)[C@@H]2CSSC[C@H](NC(=O)[C@@H](N)[C@@H](C)O)C(=O)N[C@@H](CCCNC(=N)N)C(=O)N[C@@H](CO)C(=O)N[C@@H](CO)C(=O)NCC(=O)N[C@@H](CCCNC(=N)N)C(=O)N[C@@H](Cc3ccc(O)cc3)C(=O)N2)CSSC[C@@H](C(=O)N[C@H](C(=O)O)C(C)C)NC(=O)[C@H](C)NC(=O)[C@H](CC(=O)O)NC(=O)[C@H]([C@@H](C)O)NC1=O	14.4	2
CC[C@H](C)[C@@H]1NC(=O)[C@H](CCCNC(=N)N)NC(=O)[C@H](CCCNC(=N)N)NC(=O)[C@@H]2CSSC[C@H](NC(=O)[C@H](Cc3ccc(O)cc3)NC(=O)[C@H](C)NC(=O)CNC(=O)[C@H](CO)NC(=O)[C@H](CO)NC(=O)[C@H](CCCNC(=N)N)NC(=O)[C@@H](NC(=O)[C@@H](N)[C@@H](C)O)CSSC[C@@H](C(=O)N[C@H](C(=O)O)C(C)C)NC(=O)[C@H](C)NC(=O)[C@H](CC(=O)O)NC(=O)[C@H]([C@@H](C)O)NC1=O)C(=O)N[C@@H](CCCNC(=N)N)C(=O)N[C@@H](CO)C(=O)N1CCC[C@H]1C(=O)N[C@@H](Cc1ccc(O)cc1)C(=O)N[C@@H](CC(=O)O)C(=O)N[C@@H](CCCNC(=N)N)C(=O)N[C@@H](CCCNC(=N)N)C(=O)N[C@@H](CCCNC(=N)N)C(=O)N[C@@H](CCCNC(=N)N)C(=O)N[C@@H](Cc1ccc(O)cc1)C(=O)N2	72.9	4.2
CC[C@H](C)[C@@H]1NC(=O)[C@H](CCCNC(=N)N)NC(=O)[C@H](CCCNC(=N)N)NC(=O)[C@@H]2CSSC[C@H](NC(=O)[C@H](Cc3ccc(O)cc3)NC(=O)[C@H](CCCNC(=N)N)NC(=O)CNC(=O)[C@H](CO)NC(=O)[C@H](CO)NC(=O)[C@H](CCCNC(=N)N)NC(=O)[C@@H](NC(=O)[C@@H](N)[C@@H](C)O)CSSC[C@@H](C(=O)N[C@H](C(=O)O)C(C)C)NC(=O)[C@H](C)NC(=O)[C@H](CC(=O)O)NC(=O)[C@H]([C@@H](C)O)NC1=O)C(=O)N[C@@H](CCCNC(=N)N)C(=O)N[C@@H](CO)C(=O)N1CCC[C@H]1C(=O)N[C@@H](Cc1ccc(O)cc1)C(=O)N[C@@H](CC(=O)O)C(=O)N[C@@H](CCCNC(=N)N)C(=O)N[C@@H](CCCNC(=N)N)C(=O)N[C@@H](CCCNC(=N)N)C(=O)N[C@@H](CCCNC(=N)N)C(=O)N[C@@H](C)C(=O)N2	32.6	1.5
CC[C@H](C)[C@@H]1NC(=O)[C@H](CCCNC(=N)N)NC(=O)[C@H](CCCNC(=N)N)NC(=O)[C@@H]2CSSC[C@H](NC(=O)[C@H](Cc3ccc(O)cc3)NC(=O)[C@H](CCCNC(=N)N)NC(=O)CNC(=O)[C@H](CO)NC(=O)[C@H](CO)NC(=O)[C@H](CCCNC(=N)N)NC(=O)[C@@H](NC(=O)[C@@H](N)[C@@H](C)O)CSSC[C@@H](C(=O)N[C@H](C(=O)O)C(C)C)NC(=O)[C@H](C)NC(=O)[C@H](CC(=O)O)NC(=O)[C@H]([C@@H](C)O)NC1=O)C(=O)N[C@@H](CCCNC(=N)N)C(=O)N[C@@H](CO)C(=O)N1CCC[C@H]1C(=O)N[C@@H](C)C(=O)N[C@@H](CC(=O)O)C(=O)N[C@@H](CCCNC(=N)N)C(=O)N[C@@H](CCCNC(=N)N)C(=O)N[C@@H](CCCNC(=N)N)C(=O)N[C@@H](CCCNC(=N)N)C(=O)N[C@@H](Cc1ccc(O)cc1)C(=O)N2	26	0.6
CC[C@H](C)[C@@H]1NC(=O)[C@H](CCCNC(=N)N)NC(=O)[C@H](CCCNC(=N)N)NC(=O)[C@@H]2CSSC[C@H](NC(=O)[C@H](Cc3ccc(O)cc3)NC(=O)[C@H](CCCNC(=N)N)NC(=O)CNC(=O)[C@H](CO)NC(=O)[C@H](C)NC(=O)[C@H](CCCNC(=N)N)NC(=O)[C@@H](NC(=O)[C@@H](N)[C@@H](C)O)CSSC[C@@H](C(=O)N[C@H](C(=O)O)C(C)C)NC(=O)[C@H](C)NC(=O)[C@H](CC(=O)O)NC(=O)[C@H]([C@@H](C)O)NC1=O)C(=O)N[C@@H](CCCNC(=N)N)C(=O)N[C@@H](CO)C(=O)N1CCC[C@H]1C(=O)N[C@@H](Cc1ccc(O)cc1)C(=O)N[C@@H](CC(=O)O)C(=O)N[C@@H](CCCNC(=N)N)C(=O)N[C@@H](CCCNC(=N)N)C(=O)N[C@@H](CCCNC(=N)N)C(=O)N[C@@H](CCCNC(=N)N)C(=O)N[C@@H](Cc1ccc(O)cc1)C(=O)N2	53.5	–
